Results of unrelated studies side by side (data: NIAID ChemDB).

Shared fields: tests on isolated targets; species: HIV-1; target: Reverse transcriptase; endpoint: inhibition

Inhibition is in % at the dose shown (toxicity tests: loss of growth or viability).

| compound | strain | tested at | read by | result |
|---|---|---|---|---|
| CC(C)=CC[C@H]1C[C@@]2(C[C@H]3CCC(C)(C)C=C3C)C(=O)[C@](C(=O)c3ccccc3)(C(=O)C3=C2OC(C)(C)CC3)C1(C)C | - | 200 µg/mL | RT activity / radiometric | 12.1% |
| CC(C)=CCc1c2c(c(O)c3c1O[C@@]14C(C[C@H]5CC1C(C)(C)O[C@]4(C/C=C(\C)C=O)C5=O)C3=O)C=CC(C)(C)O2 | - | 200 µg/mL | nucleotide incorporation / radiometric | 92.4% |
| COc1cc(-c2ccccc2)c(OC)c(OC)c1O | - | 200 µg/mL | RT activity / radiometric | 91.15% |
| C/C=C/c1ccc2c(c1)[C@H](C)[C@@H](c1ccc(O)c(OC)c1)O2 | - | 200 µg/mL | RT activity / radiometric | 67.8% |
| Cc1ccccc1NC(=O)CCN1CCc2ccccc2C1 | - | 40 µM | RT activity / nucleotide incorporation | 44% |
| CC1=C(/C=C/C(C)=C/C=C/C(C)=C/C(=O)O)C(C)(C)CCC1 | - | 100 µM | ELISA | 30% |
| C/C=C/c1ccc2c(c1)[C@H](C)[C@@H](c1ccc(OC)c(OC)c1)O2 | - | 200 µg/mL | RT activity / radiometric | 28.5% |
| CC(C)=CCc1c2c(c(O)c3c1O[C@@]14C(=C[C@H]5CC1C(C)(C)O[C@]4(C/C=C(\C)C=O)C5=O)C3=O)C=CC(C)(C)O2 | - | 200 µg/mL | nucleotide incorporation / radiometric | 49.5% |
| CC1=C(/C=C/C(C)=C/C=C/C(C)=C/C(=O)O)C(C)(C)CCC1 | HTLV-III | 5 µg/mL | nucleotide incorporation | 0% |
| COc1cc(O)cc(O)c1C(=O)c1cc(O)cc(O)c1 | - | 200 µg/mL | RT activity / radiometric | -17.92% |
| C[C@H]1[C@H](O)C(=O)CC2[C@]3(C)CC[C@@]4(C)C5CC(C)(C)CC[C@]5(C)CC[C@]4(C)C3CC[C@@]21C | - | 200 µg/mL | RT activity / radiometric | 11.35% |
| COc1cc(O)cc(O)c1C(=O)c1ccc(O)c(O)c1 | - | 200 µg/mL | RT activity / radiometric | 67.79% |
| C/C(=C\C=C\[C@@H](C)C1CC[C@@]2(C)[C@@H]3CC[C@H]4C(C)(C)C(=O)CC[C@]4(C)[C@@]3(O)CC[C@]12C)C(=O)O | - | 200 µg/mL | RT activity / radiometric | 87.39% |
| O=C1c2c(O)cc(O)cc2O[C@@H](c2ccc(O)cc2)[C@@H]1c1c(O)cc(O)c2c(=O)cc(-c3ccc(O)c(O)c3)oc12 | - | 200 µg/mL | RT activity / radiometric | 100% |
| O=C(OC[C@H](OC(=O)c1ccc(O)cc1)[C@@H](COC(=O)c1ccc(O)cc1)OC(=O)c1ccc(O)cc1)c1ccc(O)cc1 | - | 50 µM | nucleotide incorporation | >99% |
| CC(C)=CCc1c2c(c(O)c3c1O[C@@]14C5C[C@@H](C(=O)[C@@]1(C/C=C(/C)C(=O)O)OC5(C)C)C1OC14C3=O)C=CC(C)(C)O2 | - | 200 µg/mL | nucleotide incorporation / radiometric | 86.7% |
| COc1cc(-c2ccc(O)cc2)cc(OC)c1O | - | 200 µg/mL | RT activity / radiometric | 8.57% |
| COc1cc2c(cc1OC)-c1c3c(cc4ccnc(c14)C2=O)OCO3 | - | 200 µg/mL | RT activity / radiometric | 25.5% |
| O=c1c2cc(O)ccc2oc2cc(O)cc(O)c12 | - | 200 µg/mL | RT activity / radiometric | -27.67% |
| CC(C)=CCc1c(O)c(CC=C(C)C)c2c(c1O)C(=O)C1=C[C@H]3CC4C(C)(C)O[C@](CC=C(C)C)(C3=O)[C@]14O2 | - | 200 µg/mL | nucleotide incorporation / radiometric | 52.1% |
| O=c1c(O)c(-c2ccc(O)c(O)c2)oc2cc(O)c(O)c(O)c12 | - | 2 µg/mL | nucleotide incorporation | 90% |
| COC(=O)/C(C)=C/C=C/[C@@H](C)[C@H]1CC[C@@]2(C)C3CC[C@H]4C(C)(C)C(=O)CC[C@]4(C)[C@@]3(O)CC[C@]12C | - | 200 µg/mL | RT activity / radiometric | 48.5% |
| CO[C@]12C=C3C(=O)c4c(O)c5c(c(CC=C(C)C)c4O[C@]34C(C1)C(C)(C)O[C@]4(CC=C(C)C)C2=O)OC(C)(C)C=C5 | - | 200 µg/mL | nucleotide incorporation / radiometric | 23.2% |
| O=C1c2c(O)cc(O)cc2O[C@H](c2ccc(O)cc2)[C@H]1c1c(O)cc(O)c2c(=O)cc(-c3ccc(O)c(O)c3)oc12 | - | 200 µg/mL | RT activity / radiometric | 82.12% |
| C1=Cc2cccnc2N(C2CC2)c2ncccc21 | - | 1 µM | nucleotide incorporation | 98% |
| COc1ccc(-c2cc(OC)c(O)c(OC)c2O)cc1 | - | 200 µg/mL | RT activity / radiometric | 45.36% |
| CC(=O)O[C@@H](/C=C(\C)C(=O)O)C[C@@H](C)[C@H]1CC[C@@]2(C)C3CC[C@H]4C(C)(C)C(=O)CC[C@]4(C)C3=CC[C@]12C | - | 200 µg/mL | RT activity / radiometric | 94.45% |
| C=CC(C)(C)c1c2c(c(O)c3c(=O)c4ccc(OC)c(O)c4oc13)C=CC(C)(C)O2 | - | 200 µg/mL | RT activity / radiometric | 44.41% |
| Oc1cc(O)cc([C@H]2Oc3cc(O)cc(O)c3C[C@H]2O)c1 | - | 200 µg/mL | RT activity / radiometric | 28.7% |
| O=C1CN=C(c2ccc[nH]2)c2cc(Cl)ccc2N1 | - | 25 µM | ELISA | 6% |
| CCN1c2ncccc2-c2cnc(C)n2-c2ccc(-c3cn[nH]c3)nc21 | LAV | 1 µM | nucleotide incorporation | 95% |
| CC(C)=CCC[C@]1(C)C=Cc2c(O)c3c(c(CC=C(C)C)c2O1)O[C@@]12C(=C[C@H]4CC1C(C)(C)O[C@]2(C/C=C(/C)C(=O)O)C4=O)C3=O | - | 200 µg/mL | nucleotide incorporation / radiometric | 90% |
| Cc1cn([C@H]2CC[C@@H](COP(=O)(O)OP(=O)(O)OP(=O)(O)O)O2)c(=O)[nH]c1=O | - | 10 µM | ELISA | 99% |

Repeating the final 3 entries:

compound	strain	tested at	read by	result
CCN1c2ncccc2-c2cnc(C)n2-c2ccc(-c3cn[nH]c3)nc21	LAV	1 µM	nucleotide incorporation	95%
CC(C)=CCC[C@]1(C)C=Cc2c(O)c3c(c(CC=C(C)C)c2O1)O[C@@]12C(=C[C@H]4CC1C(C)(C)O[C@]2(C/C=C(/C)C(=O)O)C4=O)C3=O	-	200 µg/mL	nucleotide incorporation / radiometric	90%
Cc1cn([C@H]2CC[C@@H](COP(=O)(O)OP(=O)(O)OP(=O)(O)O)O2)c(=O)[nH]c1=O	-	10 µM	ELISA	99%

An empty or dashed field is not shown. Lines come from different laboratories, so protocols vary.